# Results: patent US20050130909A1 (priority 2002, published 2005)
# Test system: N,N′-diacetyl-Lys-D-Ala-D-Ala
# Test: ITC of binding to tri-peptide cell-wall analog, with and without HSA
# Protocol: Peptide concentrations were determined by weight.
# Trans. R. Soc. Lond. Ser. A-Math. Phys. Eng. […] Wiley, (1998) p 103-111; and Cooper, A., Curr. Opin. Chem. Biol. (1999) 3, 557-563.
smiles,measurement,setting,value
CN[C@H]1C(=O)N[C@@H]2Cc3ccc(cc3)Oc3cc4cc(c3O[C@@H]3O[C@H](C(=O)O)[C@@H](O)[C@H](O)[C@H]3NC(=O)CCCCCCCCC(C)C)Oc3ccc(cc3Cl)[C@@H](O)[C@@H]3NC(=O)[C@H](NC(=O)[C@@H]4NC(=O)[C@@H](NC2=O)c2cc(cc(O)c2Cl)Oc2cc1ccc2O)c1ccc(O)c(c1)-c1c(O[C@H]2O[C@H](CO)[C@@H](O)[C@H](O)[C@@H]2O)cc(O)cc1[C@@H](C(=O)NCCCN(C)C)NC3=O [Dalbavancin],ΔS,"25 ° C., with HSA 34.2 μM",−46.20 eu
same,N (tri-peptide per dalbavancin),absence of HSA,~0.5
